This experiment deals with WT CHIKV LS3. The experiment is classed as cell-based. The settings on record: concentrations above 63 μM; 28 h p.i.

Structures are written as SMILES.

For the molecule `CC(=O)c1cccc(-n2nnc3c(=O)[nH]c(C)nc32)c1` [MADTP-314, 3-(3′-acetylphenyl)-5-methyl-3H-[1,2,3]triazolo[4,5-d]pyrimidin-7(6H)-one], the “expression of CHIKV proteins (nsP1, E2E3), WT virus” value is recorded as “hardly detectable expression of CHIKV proteins”.

The values above are taken from PMC4992889, “The viral capping enzyme nsP1: a novel target for the inhibition of chikungunya virus infection” (Scientific Reports, 2016).
